Results on 1 compound are retold here after ChEMBL document CHEMBL4811216, “Chemotherapy for human schistosomiasis: how far have we come? What's new? Where do we go from here?” (RSC Med Chem, 2020).

By UniProt entry, the sequences of proteins in these tests, tags left out. Residues count along the entry.
UniProt Q962Y6, 1-598: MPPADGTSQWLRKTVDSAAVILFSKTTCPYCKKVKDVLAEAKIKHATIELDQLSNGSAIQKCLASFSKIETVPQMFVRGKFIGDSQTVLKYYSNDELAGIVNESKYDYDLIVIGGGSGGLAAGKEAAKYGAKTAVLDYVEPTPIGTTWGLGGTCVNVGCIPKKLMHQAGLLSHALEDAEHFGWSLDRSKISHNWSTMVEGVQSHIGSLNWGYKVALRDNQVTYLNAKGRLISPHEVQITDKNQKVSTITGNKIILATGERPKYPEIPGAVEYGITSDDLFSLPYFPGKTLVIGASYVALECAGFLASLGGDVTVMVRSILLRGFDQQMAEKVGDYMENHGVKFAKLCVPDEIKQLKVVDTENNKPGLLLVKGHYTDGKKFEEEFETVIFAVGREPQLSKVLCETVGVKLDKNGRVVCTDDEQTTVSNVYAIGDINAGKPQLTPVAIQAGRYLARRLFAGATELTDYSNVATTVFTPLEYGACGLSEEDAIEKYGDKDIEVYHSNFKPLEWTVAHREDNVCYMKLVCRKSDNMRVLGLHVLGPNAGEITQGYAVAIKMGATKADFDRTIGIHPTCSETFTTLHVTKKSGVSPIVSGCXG

The target of this test is Thioredoxin glutathione reductase (Schistosoma mansoni, UniProt Q962Y6). As to the kind of experiment: Inhibition of Schistosoma mansoni thioredoxin glutathione reductase incubated for 50 mins by thio-glo reagent based fluorescence method.

Broadly, the IC50 is the concentration at which inhibition is half-maximal. The compound `CCNc1sc(Br)c([N+](=O)[O-])c1[N+](=O)[O-]` gave a half-maximal inhibitory concentration (IC50) of 3.15 µM.
